Data reported in PMC4718804 (eLife, 2015).

Target: NPC1(P691S) (Homo sapiens, UniProt O15118, P691S)
Assay: UV crosslinking of U-X to transfected NPC1(P691S) in 10-3 cells
Details: 10-3 cells expressing the P691S mutant, 0.3 µM U-X

C#CCOc1ccc(C(=O)c2ccc(C(=O)OCCN(CC)CCOC3CCC4(C)C(=CCC5C6CCC(=O)C6(C)CCC54)C3)cc2)cc1 (stereo not shown) [U-X]
fluorescent NPC1 after UV crosslinking of U-X: not detected
